Anti-infective test results gathered from many reports (values: NIAID ChemDB through PubChem).

ICn is the concentration giving n% inhibition.

smiles,test,target,method,strain or isolate,tested at,read-out,agent,cell line,value
COc1ccc(N2CCN(c3cncc(-c4ccc(CO)cc4)n3)CC2)cc1OC,target,UL97 kinase,-,-,-,IC50,Cytomegalovirus,-,<10 µM
Cc1nccc2c(C)c3c(cc12)c1ccccc1n3CCC1CO1,culture,-,resazurin,H37Rv,6.25 µg/mL,inhibition,Mycobacterium tuberculosis,-,100%
O=C(Nc1cc(S(=O)(=O)[O-])cc2cc(S(=O)(=O)[O-])ccc12)c1ccccc1,culture,-,cytopathic effect,-,50 µg/mL,inhibition,Herpes simplex virus,Human amnion AV3 cells,0%
CCCCC(CC)CN1CN(CC(CC)CCCC)CC(C)(NCCNCCc2ccc(F)cc2)C1,culture,-,-,-,-,MIC,Mycobacterium tuberculosis,-,12.5 µM
Nc1ccc2c(O)cc(S(=O)(=O)[O-])cc2c1S(=O)(=O)[O-],culture,-,cytopathic effect,-,5 µg/mL,inhibition,Herpes simplex virus,Human amnion AV3 cells,0%
O=C(Nc1nnc(NCCc2cnc[nH]2)s1)c1c(Cl)cccc1Cl,target,Polymerase,-,-,-,IC50,Human cytomegalovirus,-,<25 µM
C[C@@H](NCCNC[C@@H]1CC[C@H]2C[C@@H]1C2(C)C)C1CCCCC1,culture,-,-,-,-,MIC,Mycobacterium tuberculosis,-,50 µM
CC(=O)Nc1ccc(S(=O)(=O)NNc2nc(N3CCOCC3)nc(N3CCOCC3)n2)cc1,culture,-,BACTEC,H37Rv,12.5 µg/mL,inhibition,Mycobacterium tuberculosis,-,-2%
O=C(Nc1nnc(NCc2ccc3c(c2)OCO3)s1)c1cc(F)cc(F)c1,target,Polymerase,-,-,-,IC50,Human cytomegalovirus,-,>25 µM
COC(=O)Nc1nc2cc(Cl)c(Cl)cc2[nH]1,culture,-,BACTEC,H37Rv,-,MIC bound,Mycobacterium tuberculosis,-,>12.5 µg/mL
C[C@@H]1[C@H]2C[C@@H](C[C@H]1NCCNCCc1cccc(F)c1)C2(C)C,culture,-,-,-,-,MIC,Mycobacterium tuberculosis,-,50 µM
CCOc1ccc2c(c1)n([O-])c1cc(Br)ccc1[n+]2=O,culture,-,BACTEC,H37Rv,12.5 µg/mL,inhibition,Mycobacterium tuberculosis,-,100%
C#CC[C@@H](C(=O)N[C@H](/C=C/C(=O)OCC)C[C@@H]1CCNC1=O)n1cccc(NC(=O)c2cc(C)on2)c1=O,culture,-,cytopathic effect / XTT,Serotype 39,-,EC50,Rhinovirus,H1-HELA,0.102 µM
CNCCc1cccs1.Cl,culture,-,-,H37Rv,-,MIC,Mycobacterium tuberculosis,-,1600 µg/mL
CCCCCCCCCCCCN1C(=O)[N+](C)(C)N=C1[O-],culture,-,resazurin,H37Rv,-,MIC bound,Mycobacterium tuberculosis,-,>6.25 µg/mL
CCSCCNc1nnc(NC(=O)c2cc3ccccc3s2)s1,target,Polymerase,-,-,-,IC50,Human cytomegalovirus,-,>25 µM
CC(CNCC(c1ccccc1)c1ccccc1)NCC12CC3CC(CC(C3)C1)C2,culture,-,-,-,-,MIC,Mycobacterium tuberculosis,-,25 µM
COc1ccc(/C=C2\NC(c3ccccc3)OC2=O)cc1OC,culture,-,BACTEC,H37Rv,12.5 µg/mL,inhibition,Mycobacterium tuberculosis,-,-32%
O=C1NC(=O)C(c2ccccc2)C(=O)N1,culture,-,-,H37Rv,-,MIC,Mycobacterium tuberculosis,-,>100 µg/mL
Fc1ccc(N2CCCCC2)c(NC(=S)c2ccncc2)c1,host protein,EphA2,kinase activity,-,10 µM,inhibition,-,-,12%
COc1cc(C[C@H](C)[C@H](C)Cc2ccc(O)c(O)c2)ccc1O,culture,-,broth dilution,CCC 122-2000,-,MIC50,Candida colliculosa,-,31.25 µg/mL
CC(=O)c1ccccc1-c1cncc(N2CCN(c3ccncc3)CC2)n1,target,UL97 kinase,-,-,10 µM,inhibition,Cytomegalovirus,-,>15%
NC(Cc1ccc(O)cc1)C(=O)N/N=C/c1ccc2c(c1)OCO2,culture,-,BACTEC,H37Rv,12.5 µg/mL,inhibition,Mycobacterium tuberculosis,-,-21%
C[C@@H]1[C@@H](NCCNCCCCc2ccccc2)C[C@H]2C[C@@H]1C2(C)C,culture,-,-,-,-,MIC,Mycobacterium tuberculosis,-,50 µM
O=C1c2ccccc2C(=O)c2c(Nc3cccc4c3C(=O)c3ccccc3C4=O)cccc21,culture,-,BACTEC,H37Rv,-,MIC bound,Mycobacterium tuberculosis,-,>12.5 µg/mL
OCc1ccc(-c2cncc(N3CCN(c4ccc(F)cc4)CC3)n2)cc1,target,UL97 kinase,-,-,1 µM,inhibition,Cytomegalovirus,-,<50%
CCCCCCCCCCCCOS(=O)(=O)O,culture,-,-,H37Rv,-,MIC,Mycobacterium tuberculosis,-,25 µg/mL
O=C1CCC2CCC(CC2)O1,culture,-,BACTEC,H37Rv,-,MIC,Mycobacterium tuberculosis,-,≥12.5 µg/mL
CCC(CC)[C@H](NC(C)=O)[C@@H]1[C@H](O)[C@@H](C(=O)O)C[C@H]1N=C(N)N,culture,-,-,Influenza A/Virginia/2/88R (H3N2),-,EC50,Influenza A virus,MDCK,<0.01 µM
C=CCc1ccc(O)c(OC)c1,culture,-,turbidity,2029,-,MIC90,Candida tropicalis,-,490 µg/mL
CC(=O)Nc1ccc(Cc2ccc(NC(C)=O)cc2)cc1,culture,-,-,H37Rv,-,MIC,Mycobacterium tuberculosis,-,>100 µg/mL
O=S(=O)([O-])c1cc(O)c2ccccc2c1,culture,-,cytopathic effect,-,10 µg/mL,inhibition,Herpes simplex virus,Human conjunctiva cells,0%
Clc1ccc(-c2cncc(NCc3ccccc3)n2)cc1,target,UL97 kinase,-,-,10 µM,inhibition,Cytomegalovirus,-,>15%
O=C(Nc1nnc(NCCCNC2CCCCC2)s1)c1cc(F)cc(F)c1,target,Polymerase,-,-,-,IC50,Human cytomegalovirus,-,>25 µM
O=C(Nc1ccc2cc(S(=O)(=O)[O-])cc(S(=O)(=O)[O-])c2c1)c1ccc([N+](=O)[O-])cc1.[Na+].[Na+],culture,-,-,H37Rv,-,MIC,Mycobacterium tuberculosis,-,>100 µg/mL
O=S(=O)(O)c1ccc(N=Nc2c(O)ccc3cc(S(=O)(=O)O)ccc23)cc1,culture,-,cytopathic effect,-,10 µg/mL,inhibition,Herpes simplex virus,Human conjunctiva cells,0%
O=C(O)c1ccc(NCc2ccccc2)cc1O,culture,-,-,H37Rv,-,MIC,Mycobacterium tuberculosis,-,100 µg/mL
Cc1ccc(NC(=S)NC(=O)C(C)Oc2ccccc2)cc1Cl,culture,-,BACTEC,H37Rv,12.5 µg/mL,inhibition,Mycobacterium tuberculosis,-,98%
Nc1c(S(=O)(=O)[O-])cc2cc(S(=O)(=O)[O-])ccc2c1O,culture,-,cytopathic effect,-,10 µg/mL,inhibition,Herpes simplex virus,Human conjunctiva cells,0%
Cc1ccc(-c2cncc(N3CCN(c4ccccn4)CC3)n2)cc1,target,UL97 kinase,-,-,-,IC50,Cytomegalovirus,-,<10 µM
CCC1(Br)C(=O)NC(=O)NC1=O,culture,-,BACTEC,H37Rv,-,MIC bound,Mycobacterium tuberculosis,-,>12.5 µg/mL
CC(C)c1cccc(N)c1,culture,-,-,H37Rv,-,MIC,Mycobacterium tuberculosis,-,0.39 µg/mL
NC(=O)C(=CNC(=S)Nc1ccc(Cl)c(Cl)c1)C(N)=O,culture,-,BACTEC,H37Rv,-,MIC bound,Mycobacterium tuberculosis,-,<6.25 µg/mL
CCOC(=O)c1ccc(OCCC2CCN(c3ccc(C)nn3)CC2)cc1,culture,-,neutral red,107E (ICAM-1 receptor group 73),-,EC50,Rhinovirus,KB,0.018 µM
CN1CC2=C(NC(=S)NC2c2ccccc2Cl)/C(=C\c2ccccc2Cl)C1.Cl,culture,-,BACTEC,H37Rv,-,MIC bound,Mycobacterium tuberculosis,-,>12.5 µg/mL
O=C(O)c1ccccc1C1OC(=O)c2ccccc21,culture,-,-,H37Rv,-,MIC,Mycobacterium tuberculosis,-,>100 µg/mL
NS(=O)(=O)O,culture,-,cytopathic effect,TYPE 3,50 µg/mL,inhibition,Adenovirus,Human embryonic lung cells,0%
O=C(Nc1nnc(NCCNc2ccccc2)s1)c1ccc(Br)cc1,target,Polymerase,-,-,-,IC50,Human cytomegalovirus,-,>25 µM
CN(C)c1ccc(C=Nc2ccccc2)cc1,culture,-,-,H37Rv,-,MIC,Mycobacterium tuberculosis,-,>100 µg/mL
COc1ccc(-c2cncc(N3CCN(c4ccc(C(C)=O)cc4)CC3)n2)cc1F,target,UL97 kinase,-,-,-,IC50,Cytomegalovirus,-,<10 µM
Cl.NCCc1cccs1,culture,-,-,H37Rv,-,MIC,Mycobacterium tuberculosis,-,100 µg/mL
Cc1cccc(N2CCN(c3cncc(-c4cc5ccccc5s4)n3)CC2C)c1,target,UL97 kinase,-,-,10 µM,inhibition,Cytomegalovirus,-,>15%
CC(C)c1cc(C(C)C)c(C(=O)Nc2nnc(NCCC3CCCN3C)s2)c(C(C)C)c1,target,Polymerase,-,-,-,IC50,Human cytomegalovirus,-,<25 µM
COC(=O)CCC(N)C(=O)NC(Cc1ccccc1)C(=O)NC(C)C(=O)NC1C(O)OC(CO)C(O)C1O,culture,-,BACTEC,H37Rv,12.5 µg/mL,inhibition,Mycobacterium tuberculosis,-,0%
CCOC(=O)/C=C(\C)NC(N)=O,culture,-,-,H37Rv,-,MIC,Mycobacterium tuberculosis,-,>100 µg/mL
CCOc1ccccc1CNCCNCCc1ccc(Cl)cc1Cl,culture,-,-,-,-,MIC,Mycobacterium tuberculosis,-,25 µM
O=C(/C=C/C(=O)N1CCOCC1)N1CCOCC1,culture,-,-,H37Rv,-,MIC,Mycobacterium tuberculosis,-,>100 µg/mL
OCc1ccc(-c2cncc(N3CCN(c4ccccn4)CC3)n2)cc1,target,UL97 kinase,-,-,1 µM,inhibition,Cytomegalovirus,-,<50%
COc1ccccc1,culture,-,-,H37Rv,-,MIC,Mycobacterium tuberculosis,-,>100 µg/mL
CC(C)=CCC/C(C)=C/COc1ccc(/C=C2\C(=O)N(O)[C@@H](C)C(=O)N2O)cc1,culture,-,BACTEC,H37Rv,-,MIC,Mycobacterium tuberculosis,-,≥12.5 µg/mL
CCNCC(=O)O,culture,-,-,H37Rv,-,MIC,Mycobacterium tuberculosis,-,>100 µg/mL
NNC(=O)c1cc(I)c(N)c(I)c1,culture,-,BACTEC,H37Rv,12.5 µg/mL,inhibition,Mycobacterium tuberculosis,-,3%
COc1ccc(Nc2ccnc(N)n2)cc1OC.Cl,culture,-,-,H37Rv,-,MIC,Mycobacterium tuberculosis,-,100 µg/mL
Cc1cc(C)cc(-c2cncc(N3CCN(c4ccc(Cl)c(Cl)c4)CC3)n2)c1,target,UL97 kinase,-,-,-,IC50,Cytomegalovirus,-,<100 µM
COC(=O)c1cc(NC(=O)OCc2ccccc2)nn1C,culture,-,resazurin,H37Rv,6.25 µg/mL,inhibition,Mycobacterium tuberculosis,-,33%
C#Cc1c(C)cc(C)c(CC(N)=O)c1C,culture,-,-,H37Rv,-,MIC,Mycobacterium tuberculosis,-,>100 µg/mL
Fc1ccccc1CNCCNCCCCc1ccccc1,culture,-,-,-,-,MIC,Mycobacterium tuberculosis,-,50 µM
CC(C)c1cc(C(C)C)c(C(=O)Nc2nnc(NCCNc3ccccc3)s2)c(C(C)C)c1,target,Polymerase,-,-,-,IC50,Human cytomegalovirus,-,>25 µM
O=S1(=O)C[C@H](O)[C@@H](O)CS1,culture,-,BACTEC,H37Rv,-,MIC bound,Mycobacterium tuberculosis,-,>12.5 µg/mL
O=C(O)c1ccc2nc[nH]c2c1,culture,-,-,H37Rv,-,MIC,Mycobacterium tuberculosis,-,>100 µg/mL
Cc1cc(S(=O)(=O)Nc2nnc3c4ccccc4cnn23)c(S)cc1Cl,culture,-,BACTEC,H37Rv,-,MIC bound,Mycobacterium tuberculosis,-,>12.5 µg/mL
CC(=O)Nc1cc(S(C)(=O)=O)cc2cccnc12,culture,-,-,H37Rv,-,MIC,Mycobacterium tuberculosis,-,>100 µg/mL
Fc1cccc(CNCCNCCCCc2ccccc2)c1,culture,-,-,-,-,MIC,Mycobacterium tuberculosis,-,25 µM
CC1=C(Cl)C[C@@H](/C(C)=C\Cl)O[C@@]1(O)C(Br)Br,culture,-,BACTEC,H37Rv,12.5 µg/mL,inhibition,Mycobacterium tuberculosis,-,14%
CCOc1ccc(C(C)=O)cc1,culture,-,-,H37Rv,-,MIC,Mycobacterium tuberculosis,-,>100 µg/mL

A second listing of 8 rows from above:

smiles | test | target | method | strain or isolate | tested at | read-out | agent | cell line | value
CCC(CC)[C@H](NC(C)=O)[C@@H]1[C@H](O)[C@@H](C(=O)O)C[C@H]1N=C(N)N | culture | - | - | Influenza A/Virginia/2/88R (H3N2) | - | EC50 | Influenza A virus | MDCK | <0.01 µM
O=C1c2ccccc2C(=O)c2c(Nc3cccc4c3C(=O)c3ccccc3C4=O)cccc21 | culture | - | BACTEC | H37Rv | - | MIC bound | Mycobacterium tuberculosis | - | >12.5 µg/mL
O=C(Nc1nnc(NCc2ccc3c(c2)OCO3)s1)c1cc(F)cc(F)c1 | target | Polymerase | - | - | - | IC50 | Human cytomegalovirus | - | >25 µM
Cc1cc(C)cc(-c2cncc(N3CCN(c4ccc(Cl)c(Cl)c4)CC3)n2)c1 | target | UL97 kinase | - | - | - | IC50 | Cytomegalovirus | - | <100 µM
Cl.NCCc1cccs1 | culture | - | - | H37Rv | - | MIC | Mycobacterium tuberculosis | - | 100 µg/mL
CCOc1ccc(C(C)=O)cc1 | culture | - | - | H37Rv | - | MIC | Mycobacterium tuberculosis | - | >100 µg/mL
CCNCC(=O)O | culture | - | - | H37Rv | - | MIC | Mycobacterium tuberculosis | - | >100 µg/mL
COc1ccc(Nc2ccnc(N)n2)cc1OC.Cl | culture | - | - | H37Rv | - | MIC | Mycobacterium tuberculosis | - | 100 µg/mL

A number after MIC or MFC names an inhibition level or a share of isolates. ECn is the concentration giving n% inhibition of infection, replication or growth. Conditions beyond the fields shown may differ between rows. MIC bound comes from a single tested concentration. Percent inhibition refers to the dose given; in toxicity tests it is the harm to the cells. Blank or dashed fields: not listed here.